PubChem BioAssay AID1224833 – University of Georgia – 2016

- Assay: 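Human genes whose knock-down alters rotavirus replication in monkey cells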 (primary screen)
- Cell system: monkey MA104 kidney cells
- Reagent: siRNA pool against human genes, 50 nM
- Time to read-out: 48 h knock-down before infection; read 24 h after infection
- Treatment: infection with rotavirus strain RV3 two days after transfection; infectious dose for this stage not given
- Read-out: 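Rotavirus antigen per well by fluorescent immunoassay, normalised to non-targeting control wells on each plate and given as a standard z-score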
- Direction: z-score vs non-targeting control: higher = more rotavirus replication than with non-targeting control
- Rule for the call: In these data the active calls have z-score vs non-targeting control at about -1 or lower, or at about 1 or higher
- Meaning of the calls: active = z-score beyond 1 either way; inactive = z-score within 1 of zero
This is a random part of about 12,000 reagents. Over the whole deposit, about 5,600 (46%) got an active call. 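Active calls cover z-scores past 1 in both directions, so they include lowered as well as raised rotavirus replication.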

gene,z-score vs non-targeting control,Call
MYH3 (GeneID 4621),0.203,inactive
ADCY6 (GeneID 112),-0.99,inactive
RCAN2 (GeneID 10231),-0.396,inactive
GRB10 (GeneID 2887),-1.49,active
GTSF1 (GeneID 121355),-1.79,active
CDH23 (GeneID 64072),-2.72,active
RAB5A (GeneID 5868),0.644,inactive
DSCR4 (GeneID 10281),0.183,inactive
GPR84 (GeneID 53831),-1.66,active
SLC26A4 (GeneID 5172),-1.21,active
BAG2 (GeneID 9532),-0.705,inactive
RABAC1 (GeneID 10567),-0.0709,inactive
SAPCD2 (GeneID 89958),-0.531,inactive
COLGALT1 (GeneID 79709),-0.668,inactive
UQCRH (GeneID 7388),-1.08,active
ZNF518B (GeneID 85460),0.588,inactive
SRSF9 (GeneID 8683),-0.609,inactive
SPAG6 (GeneID 9576),-0.73,inactive
TMEM44 (GeneID 93109),-1.88,active
OR52N2 (GeneID 390077),-1.43,active
CENPX (GeneID 201254),-0.446,inactive
HTATIP2 (GeneID 10553),-1.18,active
TRAM1 (GeneID 23471),-0.996,inactive
TMPO (GeneID 7112),0.644,inactive
SPESP1 (GeneID 246777),-0.144,inactive
C1QTNF12 (GeneID 388581),-1.15,active
PRRG4 (GeneID 79056),1.38,active
PITHD1 (GeneID 57095),0.627,inactive
SARM1 (GeneID 23098),-1.53,active
ARID3A (GeneID 1820),-1.03,active
DNAJC1 (GeneID 64215),1.63,active
BAGE4 (GeneID 85317),0.875,inactive
TTC22 (GeneID 55001),0.721,inactive
SEM1 (GeneID 7979),-2.84,active
POLR1H (GeneID 30834),0.765,inactive
CPA4 (GeneID 51200),-1.21,active
SOX9 (GeneID 6662),1.14,active
C1D (GeneID 10438),0.0389,inactive
INSC (GeneID 387755),1.79,active
GLRX2 (GeneID 51022),-0.764,inactive
OR4N2 (GeneID 390429),-0.54,inactive
ATMIN (GeneID 23300),-0.863,inactive
SLC4A8 (GeneID 9498),-0.735,inactive
AP1M2 (GeneID 10053),0.0425,inactive
CLN6 (GeneID 54982),-0.269,inactive
CTSW (GeneID 1521),0.787,inactive
CTIF (GeneID 9811),-0.303,inactive
CDPF1 (GeneID 150383),-1.49,active
OR10K1 (GeneID 391109),-1.8,active
ATOH7 (GeneID 220202),-1.32,active
ST18 (GeneID 9705),-0.872,inactive

A few values from above:
Result of OR4N2 (GeneID 390429) in “Call”: inactive
For “z-score vs non-targeting control”, SPAG6 (GeneID 9576) has -0.73
For “z-score vs non-targeting control”, ARID3A (GeneID 1820) is entered as -1.03
TTC22 (GeneID 55001), z-score vs non-targeting control: 0.721
Under “Call”, TRAM1 (GeneID 23471) shows inactive

Further reagents follow.
gene,z-score vs non-targeting control,Call
PKHD1 (GeneID 5314),-0.577,inactive
CHRM1 (GeneID 1128),-0.603,inactive
CEP85L (GeneID 387119),1.17,active
FAM181A (GeneID 90050),-0.413,inactive
SEC23A (GeneID 10484),0.0724,inactive
KRT32 (GeneID 3882),-1.38,active
NDUFB3 (GeneID 4709),-1.28,active
IL17B (GeneID 27190),-0.0298,inactive
DRC9 (GeneID 84223),-0.989,inactive
NACA (GeneID 4666),0.104,inactive
AOPEP (GeneID 84909),1.22,active
ISCU (GeneID 23479),-0.836,inactive
LINC01565 (GeneID 23434),0.871,inactive
CARD14 (GeneID 79092),-3.86,active
TMOD1 (GeneID 7111),-1.46,active
EPHX4 (GeneID 253152),-1.85,active
USE1 (GeneID 55850),-0.528,inactive
TLL1 (GeneID 7092),0.931,inactive
TRAPPC10 (GeneID 7109),-0.175,inactive
GAS8-AS1 (GeneID 750),0.398,inactive
IL13 (GeneID 3596),-1.4,active
CFAP410 (GeneID 755),-2.31,active
ASMTL (GeneID 8623),-0.676,inactive
ACADM (GeneID 34),-3.01,active
RPS14 (GeneID 6208),1.14,active
MAGEB4 (GeneID 4115),-0.534,inactive
WHAMM (GeneID 123720),0.523,inactive
SUFU (GeneID 51684),-0.701,inactive
SLC29A1 (GeneID 2030),-1.25,active
CLMP (GeneID 79827),-0.683,inactive
PC (GeneID 5091),-1.71,active
ARMC2 (GeneID 84071),0.903,inactive
NRIP2 (GeneID 83714),0.63,inactive
ICAM5 (GeneID 7087),-0.699,inactive
OR2W1 (GeneID 26692),-0.275,inactive
FMNL2 (GeneID 114793),-0.791,inactive
BCAS2 (GeneID 10286),-0.521,inactive
NBEA (GeneID 26960),-0.922,inactive
MCM9 (GeneID 254394),-0.291,inactive
CELF6 (GeneID 60677),-0.708,inactive
HJURP (GeneID 55355),-1.77,active
DNAJC9 (GeneID 23234),0.248,inactive
AREG (GeneID 374),-0.58,inactive
ABCG1 (GeneID 9619),-0.536,inactive
GFRA4 (GeneID 64096),1.73,active
DEFB128 (GeneID 245939),0.274,inactive
ARRDC5 (GeneID 645432),-1.66,active
DPPA4 (GeneID 55211),-1.22,active
RFT1 (GeneID 91869),-0.705,inactive
FST (GeneID 10468),-1.22,active
CCNJL (GeneID 79616),-0.654,inactive
DFFB (GeneID 1677),-1.11,active
ECPAS (GeneID 23392),1.53,active
SLC25A38 (GeneID 54977),-0.604,inactive
FAM167B (GeneID 84734),0.672,inactive
AKIRIN2 (GeneID 55122),-1.16,active
LARGE1 (GeneID 9215),0.675,inactive
OR52B4 (GeneID 143496),0.177,inactive
TUBGCP4 (GeneID 27229),-0.919,inactive
